{"source": "patent US11672797B2", "about": "“Methods of treating keloids” (Hampton University, priority 2019, dated 2023)", "tested_on": "Keloid fibroblast (KF) cells (CRL1762)", "experiment": "Example 1: Hoechst / propidium iodide staining of keloid fibroblasts after 16 h treatment", "assay_type": "cell-based, human", "conditions": "40 μM KC7F2, 25 uM IDF-11774, 25 uM PX-478, 10 mM 2-DG, compared to control untreated cells, FIGS. 4A-B"}
{"smiles": "Cl.Cl.N[C@@H](Cc1ccc([N+]([O-])(CCCl)CCCl)cc1)C(=O)O", "values": [{"measurement": "number of KF cells", "value": "did not work well"}]}
